Compound potency records, mixed from different reports. Data source: NIAID ChemDB in PubChem.

All rows: growth or infection tests; species: Mycobacterium tuberculosis

Lines come from different laboratories, so protocols vary. MIC bound comes from a single tested concentration. Inhibition is in % at the dose shown (toxicity tests: loss of growth or viability). A number after MIC or MFC names an inhibition level or a share of isolates. Two numbers with a dash give a range or band. An empty or dashed field is not shown.

smiles	changes	read by	dose	cells	strain	endpoint	value
Cc1cccc(N=Nc2c(O)c3ccc(Cl)c(Cl)c3[nH]c2=O)c1	-	resazurin	6.25 µg/mL	-	H37Rv	inhibition	62%
OC1CCCN2CCC1O[C@@]13CC[C@@H](OC[C@]45CN6CCCC/C=C\CC[C@](O)(C=C(c7nccc8c7[nH]c7ccccc78)[C@@H]4CC6)C25)[C@@H](O)CCN1C1[C@]2(CN4CCCC/C=C/CC[C@]1(O)C=C(c1nccc5c1[nH]c1ccccc15)[C@@H]2CC4)C3	-	-	-	-	H37Rv	MIC	<12.5 µg/mL
C=C1C(=O)OC(C)(C)C1c1ccccc1	-	BACTEC	-	VERO	H37Rv	MIC	>12.5 µg/mL
NC(=Nc1nc(-c2ccccn2)cc2ccccc12)c1ccc(Cl)c(Cl)c1	-	-	-	-	H37Rv	MIC	0.125 µg/mL
COc1cc(CCCCC(=O)CCc2ccc(OC)c(Br)c2)ccc1O	-	broth dilution	-	-	H37Rv	MIC	>200 µg/mL
O=[N+]([O-])c1ccccc1OP1(Oc2ccccc2[N+](=O)[O-])=NP(Oc2ccccc2[N+](=O)[O-])(Oc2ccccc2[N+](=O)[O-])=NP(Oc2ccccc2[N+](=O)[O-])(Oc2ccccc2[N+](=O)[O-])=N1	-	BACTEC	-	-	H37Rv	MIC	≥128 µg/mL
CNCC(Cc1cc(Br)c(CO)c(Br)c1)OC	-	-	-	-	H37Rv	MIC	820 µM
Cc1cc(=O)oc2cc(OC(=O)CNC3N=C(c4ccc(F)cc4)C=C(c4ccccc4O)S3)c([N+](=O)[O-])cc12	-	broth dilution	-	-	H37Rv	MIC99	1000 µg/mL
CO[C@H]1/C=C/O[C@@]2(C)Oc3c(C)c(O)c4c(O)c(c(/C=N/N5CCN(C)CC5)c(O)c4c3C2=O)NC(=O)/C(C)=C\C=C\[C@H](C)[C@H](O)[C@@H](C)[C@@H](O)[C@@H](C)[C@H](OC(C)=O)[C@@H]1C	-	-	-	-	H37Ra	MIC	0.025 µg/mL
O=C(NCc1ccc(Br)cc1)c1cc(Cl)ccc1O	-	-	-	-	My 331/88	MIC	16 µg/mL
CCOC(=O)c1cc(C(=O)c2ccc(Br)cc2)n2c1ccc1cc(C)ccc12	-	resazurin	-	-	H37Ra	MIC	32 µg/mL
O=[N+]([O-])c1ccc(/C=C(\c2ccc([N+](=O)[O-])o2)S(=O)(=O)c2ccccc2)cc1	-	BACTEC	-	-	H37Rv	MIC	≥12.5 µg/mL
Cc1cc(=O)oc2cc(OC(=O)CNC3N=C(c4ccc(F)cc4)C=C(c4ccccc4Cl)S3)c([N+](=O)[O-])cc12	-	broth dilution	-	-	H37Rv	MIC98	62.5 µg/mL
Cc1ccc(N=Nc2c(O)c3ccc([N+](=O)[O-])cc3[nH]c2=O)cc1	-	resazurin	6.25 µg/mL	-	H37Rv	inhibition	92%
COc1ccccc1C1C=C(c2c(O)c3ccccc3oc2=O)Nc2ccccc2S1	-	resazurin	-	-	H37Rv	MIC	<6.25 µg/mL
CC(=O)Nc1ccc(/C=N/NC(N)=S)cc1	-	-	-	-	H37Ra	MIC	<0.01 µg/mL
O=c1[nH]c2c(Cl)ccc(Cl)c2c(O)c1N=Nc1cccc(Cl)c1	-	resazurin	-	-	H37Rv	MIC	>6.25 µg/mL
CN[C@@H]1[C@H](O[C@H]2[C@H](O[C@H]3[C@H](O)[C@@H](O)[C@H](N=C(N)N)[C@@H](O)[C@@H]3N=C(N)N)O[C@@H](C)[C@]2(O)C=O)O[C@@H](CO)[C@H](O)[C@H]1O	-	-	-	-	H37Ra	MIC	1.5 µg/mL
COc1ccc(C(N)=Nc2nc(-c3ccccn3)cc3ccccc23)cc1	-	-	-	-	H37Rv	MIC	0.5 µg/mL
O=C(CCc1ccccc1)c1ccc(Oc2ccccc2)c(O)c1	-	resazurin	-	-	H37Rv	MIC	15 µg/mL
CC[C@H](C)N1CCN(c2cc(=O)c3nc4c(oc3c2)c2c(=O)c3c(O)c(C)c5c(c34)=C(O)[C@@](C)(O/C=C/[C@H](OC)[C@@H](C)[C@@H](OC(C)=O)[C@H](C)[C@H](O)[C@H](C)[C@@H](O)[C@@H](C)/C=C/C=C(/C)C(=O)N2)O5)CC1	-	-	-	-	6 strains (rifampicin-resistant)	MIC90	0.025 µg/mL
C(=C\c1ccccc1)/CNc1ccc(CN2CCOCC2)cc1	-	-	-	-	103471	MIC	>64 µg/mL
CC1(C)Oc2c(c3nc4ccccc4nc3c3ccccc23)C=C1Br	-	resazurin	-	-	H37Rv	MIC	6.25 µg/mL
CN(C)c1ccc(C=O)c([N+](=O)[O-])c1	-	BACTEC	-	-	H37Rv	MIC bound	>12.5 µg/mL
Cc1cc(=O)oc2cc(OC(=O)CNC3N=C(c4ccc(F)cc4)C=C(c4ccccc4)S3)c([N+](=O)[O-])cc12	-	broth dilution	-	-	H37Rv	MIC99	100 µg/mL
O=C1c2cccc3cccc(c23)C(=O)N1c1nccs1	-	resazurin	-	-	H37Rv	MIC bound	>6.25 µg/mL
Oc1cc(C(O)CCc2ccc(Cl)cc2)ccc1Oc1ccccc1	-	resazurin	-	-	H37Rv	MIC	4 µg/mL
COc1cc2ccc1Oc1cc(ccc1OC)CCC(=O)CCCC2	-	broth dilution	-	-	H37Rv	MIC	>200 µg/mL
ICC1Cc2c(c3ccccc3c3nc4ccccc4nc23)O1	-	resazurin	-	-	H37Rv	MIC	>100 µg/mL
NNC(=O)c1ccncc1	INH resistant	resazurin	-	-	Clinical isolate	MIC	>12.5 µg/mL
Cc1cc(C)c2c(=O)[nH][nH]c2n1	-	BACTEC	12.5 µg/mL	-	H37Rv	inhibition	16%
Cc1cccc(C)c1N=Nc1c(O)c2cc(Cl)ccc2[nH]c1=O	-	resazurin	6.25 µg/mL	-	H37Rv	inhibition	13%
Cc1ccc(/C=C(\C(N)=S)c2nc3cccnc3n2C)c(C)c1	-	-	-	-	193	MIC	15.6 µg/mL
O=C(N/N=C/c1cccc([N+](=O)[O-])c1)c1ccncc1	-	-	-	-	Erdman	MIC90	0.125 µg/mL
CN[C@@H]1[C@H](O[C@H]2[C@H](O[C@H]3[C@H](O)[C@@H](O)[C@H](N=C(N)N)[C@@H](O)[C@@H]3N=C(N)N)O[C@@H](C)[C@]2(O)C=O)O[C@@H](CO)[C@H](O)[C@H]1O	-	-	-	-	H37Rv	MIC	0.3 µg/mL
COc1ccc(CCC(O)c2ccc(Oc3ccccc3)c(O)c2)cc1	-	resazurin	-	-	H37Rv	MIC	3.125 µg/mL
Cc1ccc2[nH]c3ccccc3c2c1	-	-	-	-	H37Rv	MIC	>128 µg/mL
Cc1ccc(C2=CC(c3ccc(F)cc3)=NC(NCC(=O)Oc3cc4oc(=O)cc(C)c4cc3[N+](=O)[O-])S2)cc1	-	broth dilution	-	-	H37Rv	MIC99	500 µg/mL
COc1ccc(C2CC(c3c(O)c4c(C)ccc(C)c4oc3=O)=Nc3ccccc3N2)cc1	-	resazurin	-	-	H37Rv	MIC	>6.25 µg/mL
CC(C)(C)c1ccc(CNC(=S)c2c(O)cc(Cl)cc2Cl)cc1	-	-	-	-	My 331/88	MIC	32 µg/mL
CCc1c(NCCO)c(C(=O)NCCO)c2nc3ccccc3n2c1NCCO	-	BACTEC	12.5 µg/mL	-	H37Rv	inhibition	-18%
CN1CCN(Cc2ccccc2NC/C=C/c2ccccc2)CC1	-	-	-	-	103471	MIC	>64 µg/mL
Clc1ccc(COC(Cn2ccnc2)c2ccc(Cl)cc2Cl)c(Cl)c1	-	resazurin	6.25 µg/mL	-	H37Rv	inhibition	96%
C(/C=C/c1ccccc1)=Nc1ccc(Cn2ccnc2)cc1	-	-	-	-	6425	MIC	8 µg/mL
C/C(=N\NC(=O)c1ccncc1)c1ccccc1	-	-	-	-	H37Rv	MIC90	<6.25 µg/mL
COc1ccc2cc1Oc1cc(ccc1OCc1ccccc1)CCC(=O)CCCC2	-	broth dilution	-	-	H37Rv	MIC	>200 µg/mL
O=c1oc2ccccc2c(O)c1C1=CC(c2ccc(O)cc2)Sc2ccccc2N1	-	resazurin	-	-	H37Rv	MIC	<6.25 µg/mL
CC#CC#C/C=C1\C=CC2(OC=CC2OC(C)=O)O1	-	-	-	-	INH-r	MIC	12.5 µg/mL
COC1=C(Br)C(O)C2(C=C1Br)CC(C(=O)NCC(O)COc1c(Br)cc(C(O)CNC(=O)C3=NOC4(C=C(Br)C(OC)=C(Br)C4O)C3)cc1Br)=NO2	-	-	-	-	H37Rv	MIC	7.1 µM
Cc1ccc2c3c(c(=O)oc2c1)C(C)CC(C)(CO)O3	-	BACTEC	12.5 µg/mL	-	H37Rv	inhibition	2%
NCC[C@H](O)C(=O)N[C@@H]1C[C@H](N)[C@@H](O[C@H]2O[C@H](CN)[C@@H](O)[C@H](O)[C@H]2O)[C@H](O)[C@H]1O[C@H]1O[C@H](CO)[C@@H](O)[C@H](N)[C@H]1O	-	-	-	-	H37Ra	MIC	2.5 µg/mL
Oc1cccc2c1[nH]c1c(C3=C[C@]4(O)C/C=C/CCCCCN5CC[C@@H]3[C@]3(C[C@@H]6/C=C\CCCCN6C34)C5)nccc12	-	-	-	-	H37Rv	MIC	<12.5 µg/mL
O=C(CCc1ccco1)c1ccc(Oc2ccccc2)c(O)c1	-	resazurin	-	-	H37Rv	MIC	10 µg/mL
CCCn1c2c(c(=O)n(CC)c1=O)S(=O)C(OCC)C(=O)N2	-	resazurin	6.25 µg/mL	-	H37Rv	inhibition	5%
NNC(=O)c1ccncc1	-	-	-	-	Isolate UT2204 (katG L91R mutation)	MIC	2 µg/mL
COCOc1ccc(CCC(=O)CCCCc2ccc(OC)c(O)c2)cc1Br	-	broth dilution	-	-	H37Rv	MIC	>200 µg/mL
COC1=CC=C2Nc3nc(N)[nH]c(=O)c3SC2N1	-	BACTEC	12.5 µg/mL	-	H37Rv	inhibition	-6%
O=c1[nH]c2c([N+](=O)[O-])cccc2c(O)c1N=Nc1ccc(F)cc1	-	resazurin	-	-	H37Rv	MIC	>6.25 µg/mL
CCOC(=O)/C(C#N)=C/c1ccc([N+](=O)[O-])o1	-	BACTEC	-	-	H37Rv	MIC	≥12.5 µg/mL
Oc1cc(C(O)CCc2ccc(F)cc2)ccc1Oc1ccccc1	INH resistant	resazurin	-	-	Clinical isolate	MIC	6.25 µg/mL
COc1ccc2cc1Oc1cc(ccc1O)CCC(=O)CCCC2	-	broth dilution	-	-	H37Rv	MIC	200 µg/mL
C[C@H]1COc2c(N3CCN(C)CC3)c(F)cc3c(=O)c(C(=O)O)cn1c23	-	-	-	-	18 strains	MIC50	0.5 µg/mL
Cc1ncc([N+](=O)[O-])n1CCSC(=N)N	-	resazurin	6.25 µg/mL	-	H37Rv	inhibition	-13%
NNC(=O)c1ccncc1	-	-	-	-	MTB13 (INH-R)	MIC	>4 µg/mL
Cc1cccc(N=Nc2c(O)c3ccc(C)cc3[nH]c2=O)c1	-	resazurin	-	-	H37Rv	MIC	<6.25 µg/mL
CCCC/C=C(/C=N/NC(=O)c1ccncc1)CCC	-	-	-	-	H37Rv	MIC90	0.5 µg/mL
Cc1ccc(O)c(C(=O)NCc2ccccc2)c1	-	-	-	-	My 331/88	MIC	62.5 µg/mL
C[C@H](O)[C@@H](NSc1ccccc1[N+](=O)[O-])C(=O)NCCc1nc(-c2nc(C(=O)NCCCBr)cs2)cs1	-	BACTEC	12.8 µg/mL	-	H37Rv	inhibition	29%
C(=C\c1ccccc1)/CNc1cccc(Cn2ccnc2)c1	-	-	-	-	6431	MIC	8 µg/mL
C=C1C(=O)OC2C=C(CCC(C)=O)C(C)C(OC(C)=O)CC12	-	BACTEC	-	-	H37Rv	MIC bound	>12.5 µg/mL
O=C(Nc1ccc2ccc3cccnc3c2n1)c1ccccc1	-	-	-	-	H37Rv	MIC	0.25–1 µg/mL
CCNc1cc(N)[n+](CC)c2n[nH]c(/N=C/c3cc(Cl)cc(Cl)c3O)c12	-	BACTEC	-	-	H37Rv	MIC	≥12.5 µg/mL
CN1CCN(Cc2ccc(NC/C=C/c3ccccc3)cc2)CC1	-	-	-	-	103471	MIC	>64 µg/mL
COCC1OC(O[C@@H]2C3=C(C(C)C)CC[C@]3(C)/C=C3\[C@@H](CC[C@]3(O)COC)[C@@H](C)[C@H]2O)C(O)C2OC3OC12O[C@@]3(C)[C@@H]1CO1	-	BACTEC	12.5 µg/mL	-	H37Rv	inhibition	14%
Cc1cc(=O)oc2cc(OC(=O)CNC3N=C(c4ccc(F)cc4)C=C(c4ccc(Cl)cc4)S3)c([N+](=O)[O-])cc12	-	broth dilution	-	-	H37Rv	MIC98	500 µg/mL
O=C1C(Cl)=C(Nc2ccc3cn[nH]c3c2)C(=O)c2ccccc21	-	BACTEC	-	-	H37Rv	MIC	6.25 µg/mL
C(=C\c1ccccc1)/CNc1ccc(Cn2ccnc2)cc1	-	-	-	-	6431	MIC	4 µg/mL
O=c1[nH]nc2c3cccc4cccc(c5ccc(O)c1c52)c43	-	BACTEC	-	VERO	H37Rv	MIC	3.13 µg/mL
CC[C@@H](C)N1CCN(c2cc(=O)c3nc4c(oc3c2)c2c(=O)c3c(O)c(C)c5c(c34)=C(O)[C@@](C)(O/C=C/[C@H](OC)[C@@H](C)[C@@H](OC(C)=O)[C@H](C)[C@H](O)[C@H](C)[C@@H](O)[C@@H](C)/C=C/C=C(/C)C(=O)N2)O5)CC1	-	-	-	-	16 strains (rifampicin-susceptible)	MIC90	1.56 µg/mL